1 substance from PMC2188527 can be followed below.

For this assay, the target named is HLA-A2 (human (endogenous in lymphoblastoid cell line)). Description: radioligand binding.

What is called IC50 is the midpoint of a concentration-inhibition curve. The low end stands for greater potency in that assay, the high end for weaker potency in that assay. The substance M.57-68 (peptide) showed an IC50 of 10 µM.
